Values from PubChem BioAssay AID1259414 (Drosophila RNAi Screening Center, 2018).
Aim: 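Fly genes that alter Wolbachia amount inside host cells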 (primary screen). Cells: Drosophila JW18 cells infected with Wolbachia. Knock-down reagent: long dsRNA against Drosophila genes, 0.25 µg dsRNA per well of a 384-well plate. Timing: 5 days. Conditions: cells persistently infected with Wolbachia before knock-down; no added drug. Measured: 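Automated imaging of bacterial rRNA staining divided by host cell count, reported as plate-normalised robust z-score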. Scale: Wolbachia per cell robust z: higher = more Wolbachia per host cell than the plate typical. Rule for the call: 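Hit when robust z is 1.5 or more, or -1.5 or less, in at least two of three replicates; excludes dsRNAs with several or no targets, genes not expressed in JW18 and well A1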.
The deposit covers about 24,000 reagents; shown is a random part of those that have a named target and a result. Of all reagents, about 1,210 (5%) are marked active. 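Inactive calls also include excluded dsRNAs with several or no targets, genes unexpressed in JW18, and well A1, regardless of score.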 The numbers tell different reagents against one gene apart.

| Target gene | reagent | Wolbachia per cell robust z, rep 1 | Wolbachia per cell robust z, rep 2 | Wolbachia per cell robust z, rep 3 | activity call |
| --- | --- | --- | --- | --- | --- |
| CG6225 | 1 | 0.635 | -0.0914 | -3.25 | inactive |
| CG7370 | 1 | 0.512 | 1.84 | 0.66 | inactive |
| CG17732 | 1 | 0.307 | -1.81 | 0.98 | inactive |
| ms(2)35Ci | 1 | 1.53 | 1.61 | 2.12 | inactive |
| Elp2 | 1 | -0.381 | -0.164 | -7.25 | inactive |
| CG3436 | 1 | -6.4 | 0.771 | 0.835 | inactive |
| Dhc1 | 1 | -3.51 | 0.232 | -0.51 | inactive |
| yellow-e3 | 1 | 0.802 | 0.134 | 1.1 | inactive |
| stmA | 1 | 0.816 | -0.115 | -0.965 | inactive |
| stmA | 2 | 0.499 | 0.343 | -0.0782 | inactive |
| CG17377 | 1 | 0.288 | 0.441 | -2.12 | inactive |
| CG17377 | 2 | -0.729 | 0.981 | -0.293 | inactive |
| CG17377 | 3 | 0.204 | -0.561 | -0.0966 | inactive |
| CG17377 | 4 | 0.604 | 1.28 | 0.18 | inactive |
| CG4318 | 1 | 0.477 | -0.25 | 0.673 | inactive |
| CG15167 | 1 | 0.423 | 1.05 | 1.23 | inactive |
| Syt14 | 1 | 0.222 | -1.93 | 0.000571 | inactive |
| betaTub65B | 1 | 0.524 | 0.0688 | -0.702 | inactive |
| vls | 1 | 1.05 | -1.15 | -1.85 | inactive |
| vls | 2 | 0.532 | -1.76 | 0.148 | inactive |
| holn1 | 1 | -0.311 | -0.41 | 0.106 | inactive |
| holn1 | 2 | 0.673 | 1.48 | 1.16 | inactive |
| smg | 1 | -0.523 | -1.03 | -0.338 | inactive |
| smg | 2 | 0.956 | -0.456 | -0.525 | inactive |
| CG34222 | 1 | 0.578 | -2.3 | 1.32 | inactive |
| Zip42C.1 | 1 | -3.7 | -0.316 | 0.0428 | inactive |
| Ilp3 | 1 | 0.36 | -0.801 | 0.38 | inactive |
| hebe | 1 | -0.963 | -7.52 | -1.06 | inactive |
| hebe | 2 | -0.17 | -0.192 | -0.237 | inactive |
| hebe | 3 | -0.356 | -0.586 | 0.553 | inactive |
| hebe | 4 | -0.565 | -1.27 | 0.183 | inactive |

Only “Wolbachia per cell robust z, rep 1”, for 4 of the entries above:
holn1 #2	0.673
smg #1	-0.523
smg #2	0.956
CG34222	0.578
